Experimental data as given in PubChem BioAssay (NCI).
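Step 1: Grow cells in 96-well plates. Step 2: Expose to compound for 48 hours at 5 concentrations. Step 3: Interpolate endpoints linearly; if unreached, use highest concentration. At the GI50, growth is halved. TGI denotes the concentration required for complete inhibition of growth.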

Assays:
Experiment in all cases: NCI tumour cell line growth inhibition, 48 h
[1] = tested on: MDA-MB-435
[2] = tested on: HCT-15 colon
[3] = tested on: IGROV1 ovarian
[4] = tested on: LOX IMVI melanoma
[5] = tested on: UO-31 renal
[6] = tested on: A549 NSCLC
[7] = tested on: HT29 colon
[8] = tested on: CAKI-1 renal
[9] = tested on: A498 renal
[10] = tested on: NCI-H522 lung
[11] = tested on: K-562 leukemia
[12] = tested on: NCI-H23 lung
[13] = tested on: UACC-257 melanoma
[14] = tested on: UACC-62 melanoma
[15] = tested on: BT-549 breast
[16] = tested on: U251 CNS
[17] = tested on: RXF 393 renal
[18] = tested on: SF-539 CNS
[19] = tested on: HOP-92 NSCLC
[20] = tested on: HCT-116 colon
[21] = tested on: SR leukemia
[22] = tested on: SK-OV-3 ovarian
[23] = tested on: OVCAR-3 ovarian
[24] = tested on: SW-620 colon
[25] = tested on: MCF7 breast
[26] = tested on: HL-60(TB) leukemia
[27] = tested on: OVCAR-8 ovarian
[28] = tested on: SNB-75 CNS
[29] = tested on: SK-MEL-2 melanoma
[30] = tested on: ACHN renal
[31] = tested on: SK-MEL-5 melanoma
[32] = tested on: HCC-2998 colon
[33] = tested on: PC-3 prostate
[34] = tested on: HOP-62 NSCLC
[35] = tested on: 786-0 renal
[36] = tested on: MALME-3M melanoma
[37] = tested on: RPMI-8226 leukemia
[38] = tested on: MOLT-4 leukemia
[39] = tested on: CCRF-CEM leukemia
[40] = tested on: MDA-N
[41] = tested on: COLO 205 colon
[42] = tested on: SF-268 CNS
[43] = tested on: EKVX NSCLC
[44] = tested on: DU-145 prostate
[45] = tested on: T-47D breast
[46] = tested on: MDA-MB-231 breast
[47] = tested on: KM12 colon
[48] = tested on: NCI/ADR-RES ovarian
[49] = tested on: NCI-H226 lung
[50] = tested on: SNB-19 CNS
[51] = tested on: TK-10 renal
[52] = tested on: OVCAR-5 ovarian
[53] = tested on: M14 melanoma
[54] = tested on: NCI-H460 lung
[55] = tested on: SF-295 CNS
[56] = tested on: OVCAR-4 ovarian
[57] = tested on: SK-MEL-28 melanoma

Compound: CC(=O)OC[C@]12C[C@H](OC(=O)CC(C)C)C(C)=C[C@H]1O[C@@H]1[C@H](O)[C@@H](O)[C@@]2(C)[C@@]12CO2
- GI50 [1]: 23.6 nM
- TGI [1]: 158 nM
- GI50 [2]: 17 nM
- TGI [2]: 137 nM
- GI50 [3]: < 10 nM
- TGI [3]: 29.8 nM
- GI50 [4]: < 10 nM
- TGI [4]: 14.1 nM
- GI50 [5]: 17.7 nM
- TGI [5]: 118 nM
- GI50 [6]: 22.8 nM
- TGI [6]: 286 nM
- GI50 [7]: 17.4 nM
- TGI [7]: 83.1 nM
- GI50 [8]: 36.2 nM
- TGI [8]: 688 nM
- GI50 [9]: 16.1 nM
- TGI [9]: 42.4 nM
- GI50 [10]: < 10 nM
- TGI [10]: 20.9 nM
- GI50 [11]: 12.8 nM
- TGI [11]: 6770 nM
- GI50 [12]: 17.5 nM
- TGI [12]: 530 nM
- GI50 [13]: 21.1 nM
- TGI [13]: 134 nM
- GI50 [14]: 19.7 nM
- TGI [14]: 139 nM
- GI50 [15]: 31.2 nM
- TGI [15]: 712 nM
- GI50 [16]: 16.4 nM
- TGI [16]: 83.6 nM
- GI50 [17]: 17.3 nM
- TGI [17]: 66.5 nM
- GI50 [18]: 13.7 nM
- TGI [18]: 42.7 nM
- GI50 [19]: 18 nM
- TGI [19]: 68.6 nM
- GI50 [20]: < 10 nM
- TGI [20]: 34.1 nM
- GI50 [21]: 10.9 nM
- TGI [21]: 24 nM
- GI50 [22]: 29.1 nM
- TGI [22]: 2940 nM
- GI50 [23]: 12.9 nM
- TGI [23]: 57.1 nM
- GI50 [24]: 21.5 nM
- TGI [24]: 8250 nM
- GI50 [25]: < 10 nM
- TGI [25]: 4070 nM
- GI50 [26]: 18.2 nM
- TGI [26]: > 100000 nM
- GI50 [27]: 17.1 nM
- TGI [27]: 74.7 nM
- GI50 [28]: 41.8 nM
- TGI [28]: 443 nM
- GI50 [29]: 22.7 nM
- TGI [29]: 105 nM
- GI50 [30]: 20.1 nM
- TGI [30]: 133 nM
- GI50 [31]: 12 nM
- TGI [31]: 41 nM
- GI50 [32]: < 10 nM
- TGI [32]: 22.6 nM
- GI50 [33]: 23.9 nM
- TGI [33]: 309 nM
- GI50 [34]: 19.8 nM
- TGI [34]: 1670 nM
- GI50 [35]: 21.1 nM
- TGI [35]: 201 nM
- GI50 [36]: < 10 nM
- TGI [36]: 20.3 nM
- GI50 [37]: < 10 nM
- TGI [37]: 21.3 nM
- GI50 [38]: < 10 nM
- TGI [38]: 13.8 nM
- GI50 [39]: 14.7 nM
- TGI [39]: 2120 nM
- GI50 [40]: 19.8 nM
- TGI [40]: 92.9 nM
- GI50 [41]: 39.3 nM
- TGI [41]: 188 nM
- GI50 [42]: 27.5 nM
- TGI [42]: 145 nM
- GI50 [43]: 25.6 nM
- TGI [43]: 122 nM
- GI50 [44]: 38.8 nM
- TGI [44]: 267 nM
- GI50 [45]: 18.8 nM
- TGI [45]: 639 nM
- GI50 [46]: 83.9 nM
- TGI [46]: 328 nM
- GI50 [47]: 18.7 nM
- TGI [47]: 1290 nM
- GI50 [48]: 150 nM
- TGI [48]: 2940 nM
- GI50 [49]: 15.4 nM
- TGI [49]: 33.2 nM
- GI50 [50]: 15.1 nM
- TGI [50]: 344 nM
- GI50 [51]: 19.8 nM
- TGI [51]: 122 nM
- GI50 [52]: 73.7 nM
- TGI [52]: 2240 nM
- GI50 [53]: 16.5 nM
- TGI [53]: 162 nM
- GI50 [54]: < 10 nM
- TGI [54]: 50.8 nM
- GI50 [55]: 27.8 nM
- TGI [55]: 873 nM
- GI50 [56]: 68.4 nM
- TGI [56]: 1920 nM
- GI50 [57]: 20.2 nM
- TGI [57]: 119 nM
